Compound potency records, mixed from different reports. Data source: NIAID ChemDB in PubChem.

Shared fields: growth or infection tests; organism: HIV-1; method: RT activity; read-out: EC50

Two numbers with a dash give a range or band. Lines come from different laboratories, so protocols vary. ECn: concentration that inhibits the pathogen or its effect by n%.

{"SMILES": "C[C@]12CC[C@H](O)CC1=CC[C@@H]1[C@@H]2CC[C@]2(C)C(=O)CC[C@@H]12", "cell line": "MT-2", "strain or isolate": "4246 Clinical isolate", "value": "50 µM"}
{"SMILES": "Nc1nc(=O)n([C@@H]2CS[C@H](CO)O2)cc1F", "cell line": "MT-2", "strain or isolate": "LAI", "value": "0.025 µM"}
{"SMILES": "CO[C@@H]1C[C@@H](C[C@H]2CC[C@H](C)[C@H]([C@@H](C)C(=O)O)O2)O[C@]2(O[C@](C)([C@H]3CC[C@@](C)([C@@H]4O[C@@H]([C@H]5O[C@@](O)(CO)[C@H](C)C[C@@H]5C)C[C@@H]4C)O3)C[C@H]2C)[C@@H]1C", "cell line": "H9", "strain or isolate": "IIIB", "value": "0.68 µg/mL"}
{"SMILES": "Nc1nc(NC2CC2)c2ncn([C@H]3C=C[C@@H](CO)C3)c2n1", "cell line": "MT-2", "strain or isolate": "LAI", "value": "0.326 µM"}
{"SMILES": "Nc1nc(=O)n([C@@H]2CS[C@H](CO)O2)cc1F", "cell line": "PBMC", "strain or isolate": "2:DR1 AZT-resistant", "value": "0.08 µM"}
{"SMILES": "COc1cccc(OC)c1-c1c2nc(c(-c3c(OC)cccc3OC)c3ccc([nH]3)c(-c3c(OC)cccc3OC)c3nc(c(-c4c(OC)cccc4OC)c4ccc1[nH]4)C=C3)C=C2", "cell line": "PBMC", "strain or isolate": "LAV", "value": "41.8 µM"}
{"SMILES": "CC1=CCC[C@H]2[C@](C)(Cc3cc(O)ccc3O)[C@@H](C)CC[C@]12C", "cell line": "H9", "strain or isolate": "IIIB", "value": "0.21 µM"}
{"SMILES": "O=C(CCC(=O)N1CCN(CCNC(=S)Nc2ccc(Br)cn2)CC1)NCC(=O)OC[C@@H]1C=C[C@H](n2ccc(=O)[nH]c2=O)O1", "cell line": "MT-4", "strain or isolate": "IIIB", "value": ">100 µM"}
{"SMILES": "Cc1cn([C@H]2C[C@H](N=[N+]=[N-])[C@@H](COP(=O)(OCCSC(=O)C(C)(C)O)OCCSC(=O)C(C)(C)O)O2)c(=O)[nH]c1=O", "cell line": "CEM + CEM TK-", "strain or isolate": "LAI", "value": "9.2 µM"}
{"SMILES": "Nc1ccccc1-c1c2nc(c(-c3ccccc3N)c3ccc([nH]3)c(-c3ccccc3N)c3nc(c(-c4ccccc4N)c4ccc1[nH]4)C=C3)C=C2", "cell line": "PBMC", "strain or isolate": "LAV", "value": "18.3 µM"}
{"SMILES": "CC(C)(C)NC(=O)[C@@H]1C[C@@H]2CCCC[C@@H]2CN1C[C@@H](O)[C@H](Cc1ccccc1)NC(=O)[C@H](CC(N)=O)NC(=O)c1ccc2ccccc2n1", "cell line": "MT-2", "strain or isolate": "LAI", "value": "0.005 µM"}
{"SMILES": "O=c1[nH]cnc2c1ncn2[C@H]1CC[C@@H](CO)O1", "cell line": "CEM + CEM TK-", "strain or isolate": "LAI", "value": "0.95 µM"}
{"SMILES": "Nc1nc(=O)n([C@@H]2CC[C@H](CO)O2)cc1F", "cell line": "U-937", "strain or isolate": "IIIB", "value": "0.001 µM"}
{"SMILES": "Fc1cccc(F)c1C1SCc2nc3ccccc3n21", "cell line": "H9", "strain or isolate": "RF", "value": "2.26 µM"}
{"SMILES": "Cc1cn([C@H]2C[C@H](N=[N+]=[N-])[C@@H](CO)O2)c(=O)[nH]c1=O", "cell line": "PBMC", "strain or isolate": "IIIB", "value": "0.04 µM"}
{"SMILES": "Cc1cn([C@H]2C[C@H](N=[N+]=[N-])[C@@H](CO)O2)c(=O)[nH]c1=O", "changes": "RT-P294S", "cell line": "MT-4", "strain or isolate": "HXB2-D294 (RT-P294S)", "value": "0.013 µM"}
{"SMILES": "COc1cc(OC)cc(-c2c3nc(c(-c4cc(OC)cc(OC)c4)c4ccc([nH]4)c(-c4cc(OC)cc(OC)c4)c4nc(c(-c5cc(OC)cc(OC)c5)c5ccc2[nH]5)C=C4)C=C3)c1", "cell line": "PBMC", "strain or isolate": "LAV", "value": "6.7 µM"}
{"SMILES": "CC(C)CN(C[C@@H](O)[C@H](Cc1ccccc1)NC(=O)O[C@H]1CCOC1)S(=O)(=O)c1ccc(N)cc1", "cell line": "MT-2", "strain or isolate": "LAI", "value": "0.011 µM"}
{"SMILES": "Cc1cn([C@H]2C[C@H](N=[N+]=[N-])[C@@H](CO)O2)c(=O)[nH]c1=O", "cell line": "MT-4", "strain or isolate": "IIIB", "value": "0.01 µM"}
{"SMILES": "C=C(C)[C@@H]1CC[C@]2(C(=O)NCCCCCCCC(=O)N[C@@H](CC(C)C)[C@H](O)CC(=O)O)CC[C@]3(C)[C@H](CC[C@@H]4[C@@]5(C)CC[C@H](O)C(C)(C)[C@@H]5CC[C@]43C)[C@@H]12", "cell line": "MT-4", "strain or isolate": "DH012", "value": "<53 µM"}
{"SMILES": "S=C(NCCN1CCNCC1)Nc1ccc(Br)cn1", "cell line": "CEM + CEM-SS", "strain or isolate": "LAI", "value": "13 µM"}
{"SMILES": "Nc1ncnc2c1ncn2[C@H]1CC[C@@H](CO)O1", "cell line": "CEM + CEM-SS", "strain or isolate": "LAI", "value": "0.54 µM"}
{"SMILES": "COC1CCC(OC2CC(C3OC(O)(CO)C(C)CC3C)OC2C2(C)CCC(C3(C)CCC4(CC(O)C(C)C(C(C)C5OC(O)(CC(=O)O)C(C)C(OC6CCC(OC)C(C)O6)C5OC)O4)O3)O2)OC1C", "cell line": "H9", "strain or isolate": "IIIB", "value": ">100 µg/mL"}
{"SMILES": "C[C@H](Cn1cnc2c(N)ncnc21)OCP(=O)(O)O", "cell line": "MT-2", "strain or isolate": "LAI", "value": "0.008 µM"}
{"SMILES": "CC(=O)SCCOP(=O)(OCCSC(C)=O)OC[C@H]1O[C@@H](n2cc(C)c(=O)[nH]c2=O)C[C@@H]1N=[N+]=[N-]", "cell line": "CEM + CEM-SS", "strain or isolate": "LAI", "value": "0.0048 µM"}
{"SMILES": "CC(C)(C)NC(=O)[C@@H]1C[C@@H]2CCCC[C@@H]2CN1C[C@@H](O)[C@H](Cc1ccccc1)NC(=O)[C@H](CC(N)=O)NC(=O)c1ccc2ccccc2n1", "setting": "clinical isolate", "cell line": "PBMC", "strain or isolate": "ROJO", "value": "0.009 µM"}
{"SMILES": "COC1CCC(OC2CC(C3(C)CCC4(CC(O)C(C)C(C(C)/C=C(\\C)C(=O)C(C)CC(C)C(=O)O)O4)O3)OC3(OC(C4OC(O)(CO)C(C)CC4C)CC3C)C2C)OC1C", "cell line": "H9", "strain or isolate": "IIIB", "value": "7.12 µg/mL"}
{"SMILES": "Cc1cn([C@H]2C[C@H](N=[N+]=[N-])[C@@H](CO)O2)c(=O)[nH]c1=O", "cell line": "CEM + CEM TK-", "strain or isolate": "IIIB", "value": "0.1–0.2 µM"}
{"SMILES": "C[C@]12CC[C@H](OS(=O)(=O)O)CC1=CC[C@@H]1[C@@H]2CC[C@]2(C)C(=O)CC[C@@H]12", "cell line": "CEM", "strain or isolate": "LAV", "value": "19.8 µM"}
{"SMILES": "COC1CCC(OC2CC(C)(C3CCC(C4OC(C)(O)C(C)CC4C)O3)OC2C2(C)CC(C)C3(OC(CC4OC(O)(C(C)C(=O)O)C(C)C(OC)C4OC)CC(OC)C3C)O2)OC1C", "cell line": "U-937", "strain or isolate": "IIIB", "value": "1.35 µg/mL"}
{"SMILES": "CC(C)CN(C[C@@H](O)[C@H](Cc1ccccc1)NC(=O)O[C@H]1CCOC1)S(=O)(=O)c1ccc(N)cc1", "cell line": "CEM + CEM-SS", "strain or isolate": "RF", "value": "0.0166 µM"}
{"SMILES": "Cc1cn([C@H]2C[C@H](N=[N+]=[N-])[C@@H](COP(=O)(OCCSSCCO)OCCSSCCO)O2)c(=O)[nH]c1=O", "cell line": "CEM + CEM-SS", "strain or isolate": "LAI", "value": "0.0005 µM"}
{"SMILES": "Cc1c(O)cccc1C(=O)N[C@@H](CSc1ccccc1)[C@H](O)CN1C[C@H]2CCCC[C@H]2C[C@H]1C(=O)NC(C)(C)C", "cell line": "MT-2", "strain or isolate": "RF", "value": "0.0259 µM"}
{"SMILES": "COC(=O)[C@H](C)NP(=O)(OC[C@H]1O[C@@H](N2C(=O)NC(=O)C(C)(Br)C2OC)C[C@@H]1N=[N+]=[N-])Oc1ccc(OC)cc1", "changes": "RT-T215Y", "cell line": "PBMC", "strain or isolate": "RTMF(RT-T215Y)", "value": "0.09 µM"}
{"SMILES": "CCOc1ccc(-c2c3nc(c(-c4ccc(OCC)cc4)c4ccc([nH]4)c(-c4ccc(OCC)cc4)c4nc(c(-c5ccc(OCC)cc5)c5ccc2[nH]5)C=C4)C=C3)cc1", "cell line": "PBMC", "strain or isolate": "LAV", "value": "20.2 µM"}
{"SMILES": "CC(=O)SCCOP(=O)(OCCSC(C)=O)OC[C@@H]1CC[C@H](n2cnc3c(=O)[nH]cnc32)O1", "cell line": "CEM + CEM-SS", "strain or isolate": "LAI", "value": "1.2 µM"}
{"SMILES": "COc1cccc(-c2c3nc(c(-c4cccc(OC)c4)c4ccc([nH]4)c(-c4cccc(OC)c4)c4nc(c(-c5cccc(OC)c5)c5ccc2[nH]5)C=C4)C=C3)c1", "cell line": "PBMC", "strain or isolate": "LAV", "value": ">100 µM"}
{"SMILES": "COC(=O)N[C@H](C(=O)N[C@@H](Cc1ccccc1)[C@@H](O)CN(Cc1ccc(-c2ccccn2)cc1)NC(=O)[C@@H](NC(=O)OC)C(C)(C)C)C(C)(C)C", "cell line": "MT-2", "strain or isolate": "RF", "value": "0.00389 µM"}